Among the data in publication PMC6943751 (The Journal of infectious diseases, 2014) are IC50 values, retold here.

The target in the assay is Neuraminidase (NA) of A/Washington/01/2007, NA-WT (Influenza A virus, UniProt A7UPN3). Kind of assay: biochemical.

With `CCOC(=O)C1=C[C@@H](OC(CC)CC)[C@H](NC(C)=O)[C@@H](N)C1` [Oseltamivir, oseltamivir], 0.07 ± 0.02 nM corresponded to half-maximal inhibition (IC50).
